In one assay the target is HerB (Cj1224) (Campylobacter jejuni, UniProt Q0P932). The experiment in a line: UV-VIS absorption spectroscopy. The note with it: 50 mM azide added to as-isolated di-iron protein.
For the next assay, the target named is HerA (Cj0241) (Campylobacter jejuni, UniProt Q9PIQ3). The experiment in a line: UV-VIS absorption spectroscopy. The note with it: 50 mM azide added to as-isolated (met) di-iron protein; azido-Fe(III) form.

Amino acid sequences for entries named in this document (tags omitted). A change or cut given only in a name is not applied to a line headed by its entry.
UniProt Q9PIQ3: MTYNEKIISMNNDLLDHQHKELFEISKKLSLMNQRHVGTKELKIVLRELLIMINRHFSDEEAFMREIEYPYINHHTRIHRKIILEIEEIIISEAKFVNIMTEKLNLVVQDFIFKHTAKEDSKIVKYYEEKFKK

SMILES strings stand for the structures.

Turning to `[N-]=[N+]=N`, the UV-VIS absorption spectroscopy entry was “it was reducible with dithionite and reacted with azide in a similar way” at HerB (Cj1224); “(met) form of the protein was treated with sodium azide, a characteristic broad absorbance” at HerA (Cj0241).
